Experimental data taken from PMC3172200 (2011).

Target: SEB (Staphylococcus aureus, UniProt P01552)
Experiment: SPR: binding of SEB to immobilized CD28 dimer interface peptides
Conditions: Table S1, Figure 5C,D, immobilized peptide, analyte recombinant SEB, 25°C, pH 7.4, n=3

In the case of `CSCC[C@H](NC(=O)[C@@H]1CCCN1C(=O)[C@H](CO)NC(=O)[C@@H](N)CS)C(=O)N[C@@H](CC(C)C)C(=O)N[C@H](C(=O)N[C@@H](C)C(=O)N[C@@H](Cc1ccc(O)cc1)C(=O)N[C@@H](CC(=O)O)C(=O)N[C@@H](CS)C(=O)O)C(C)C`, the ka is reported as 279 M⁻¹ s⁻¹.

`CC(C)C[C@H](NC(=O)[C@H](Cc1c[nH]cn1)NC(=O)[C@H](CCCCN)NC(=O)CNC(=O)[C@H](CCCCN)NC(=O)[C@@H](NC(=O)[C@H](Cc1c[nH]cn1)NC(=O)[C@@H](N)CS)C(C)C)C(=O)N[C@@H](CS)C(=O)N1CCC[C@H]1C(=O)N[C@@H](CS)C(=O)O` was tested, and the kd was 0.000819 s⁻¹.
